PubChem BioAssay AID504761, Drosophila RNAi Screening Center, 2011
Assay: 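Genome-wide fly cell screen for genes dengue virus requires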 (primary screen). Cell system: D.Mel-2 cells from Drosophila. Knock-down reagent: long dsRNA against Drosophila genes. Conditions: infection with dengue virus type 2; dose and infection time not stated. Detection: 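Per well on two replicate plates, imaging gave the percent of cells positive for viral envelope protein, ranked by infection, and a nuclear count of cells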. Reading the numbers: infection score: higher = more virus-infected cells; cell count: higher = more cells in the well. Call rule: 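Very low infection ranking in both replicate wells (chance probability at most 0.065), then a retest showing infection dropped 1.5-fold or more at p below 0.05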. Meaning of the calls: active = confirmed: knock-down lowers infection; inactive = not picked or not confirmed.
In all, the deposit lists about 22,000 reagents; below is a random part of those that have a named target and a result. In the full data, 116 (0.52%) got an active call. 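Calls depend on retest data that are not deposited; infection was ranked per plate without normalising between plates; the unit of the infection score is not given.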 Raw values are not corrected between plates. Unmarked entries are inactive. The numbers tell different reagents against one gene apart. The record does not give: the amount of reagent, the time to read-out.

target gene	reagent no.	infection score, replicate 1	infection score, replicate 2	cell count, replicate 1	cell count, replicate 2
DIP-alpha	1	19.6	14.9	5174	6574
DIP-alpha	2	1.58	7.78	6014	6556
CG31038	1	20.1	6.35	3471	6756
CG31038	2	10.9	6.81	4767	793
CG31038	3		2.73	262	3735
CG31038	4	3.44	2.82	6533	6137
CG15422	1	6.75	5.89	6608	6855
CG15422	2	3.29	2.68	5530	6238
UbcE2H	1	5.25	4.49	6209	6106
UbcE2H	2	20.2	3.33	4576	6696
CG32461	1	0.61	0.64	6049	6285
CG2972	1	5.66	4.75	6294	6216
CG2972	2	17.3	10.2	5859	5435
Spt	1	0.42		473	471
Spt	2	0.4	6.94	499	1829
CG4661	1	7.96	18.1	5202	5427
CG9286	1	3.8	10.3	5898	6236
CG9286	2	20.6	4.07	4805	6835
RpL24	1	1.43	3.68	2445	2203
RpL24	2	8.87		1589	328
CG4119	1	2.38	2.41	5117	5262
CG4119	2	35.4	37.9	3412	2963
CG14194	1	8.89	3.27	5479	6240

Taken from above:
CG14194, infection score, replicate 2: 3.27
Under “infection score, replicate 1”, UbcE2H #2 reads 20.2
